# Measured values as given in paper PMC9594048, “Targeting a Multidrug-Resistant Pathogen: First Generation Antagonists of Burkholderia cenocepacia’s BC2L-C Lectin” (ACS Chemical Biology, 2022).
# Protein sequences, listed by entry. Tags and fused reporters are not part of them. Residues count along the entry.
# UniProt B4EH86, 1-132 limits assumed: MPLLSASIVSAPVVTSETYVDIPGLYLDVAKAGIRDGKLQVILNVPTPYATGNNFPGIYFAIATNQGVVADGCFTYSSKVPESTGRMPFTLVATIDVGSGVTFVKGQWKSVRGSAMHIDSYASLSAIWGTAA
# Molecular target: BC2L-C-Nt (rBC2L-CN2) (Burkholderia cenocepacia, UniProt B4EH86)
# Test: Isothermal titration calorimetry (ITC)
# Format: binding
# Details: read-out: ITC KD; 25 °C, 20 mM Tris HCl pH 7.0, 100 mM NaCl; SD from duplicates
# Protocol: All experiments were performed at 25 °C with an ITC200 isothermal titration calorimeter (Microcal-Malvern Panalytical, Orsay, France). The protein rBC2L-CN2 and its ligands were dissolved in a buffer composed of 20 mM Tris HCl pH 7.0 and 100 mM NaCl. The 200 μL sample cell containing rBC2L-CN (concentrations ranging from 200 to 400 μM) was subjected to injections of ligand solution: 20 to 39 injections of 1 μL or 70 injections of 0.5 μL (5 to 50 mM, chosen depending on the ligand) at intervals of 100, 120, or 200 s, while stirring at 850 rpm. Control experiments were performed by repeating the same protocol, but injecting the ligand into buffer solution. The supplied software Origin 7 or MicroCal PEAQ-ITC was used to fit the experimental data to a theoretical titration curve allowing the determination of affinity.
# 3. Ligand evaluation materials and methods
# 3.1. Isothermal Titration Calorimetry
# All experiments were performed at 25 °C with an ITC200 isothermal titration calorimeter (Microcal - Malvern Panalytical, Orsay, France). The protein rBC2L -CN2 and its ligands were dissolved in a buffer composed of 20 mM Tris HCl pH 7.0 and 100 mM NaCl. […]
structure (smiles),measurement,value
C[C@@H]1O[C@H](NC(=O)c2ccc3[nH]ccc3c2)[C@@H](O)[C@H](O)[C@@H]1O [8e],Kd,760 µM
